Anti-infective test results gathered from many reports (values: NIAID ChemDB through PubChem).

Shared fields: growth or infection tests; agent: Candida tropicalis; measure: MIC80

MIC50, MIC90 and the like: level of inhibition, or share of isolates inhibited. Rows are shuffled and stem from different studies. Blank or dashed fields: not listed here.

SMILES,strain,value
O=C1S/C(=C\c2ccccc2)C(=O)N1CC(O)(Cn1nccn1)c1ccc(F)cc1F,-,0.56 µg/mL
CCCCN(Cc1cn(Cc2cccc(C#N)c2)nn1)CC(O)(Cn1cncn1)c1ccc(F)cc1F,-,>64 µg/mL
O=C1CSC(=O)N1CC(O)(Cn1nccn1)c1ccc(F)cc1F,-,0.71 µg/mL
CCCCN(Cc1cn(Cc2ccc(Br)cc2)nn1)CC(O)(Cn1cncn1)c1ccc(F)cc1F,-,8 µg/mL
CN(CC(=O)Nc1ccc(F)c(Cl)c1)CC(O)(Cn1cncn1)c1ccc(F)cc1F,-,1 µg/mL
C[C@@H](c1ncncc1F)[C@](O)(Cn1cncn1)c1ccc(F)cc1F,559-6.9,0.03 µg/mL
O=C1S/C(=C\c2ccccc2Br)C(=O)N1CC(O)(Cn1nccn1)c1ccc(F)cc1F,-,>100 µg/mL
CCCCN(Cc1cn(Cc2cccc(Br)c2)nn1)CC(O)(Cn1cncn1)c1ccc(F)cc1F,-,32 µg/mL
CN(CC(=O)Nc1cccc([N+](=O)[O-])c1)CC(O)(Cn1cncn1)c1ccc(F)cc1F,-,>64 µg/mL
CCCCN(Cc1cn(Cc2ccc(F)cc2)nn1)CC(O)(Cn1cncn1)c1ccc(F)cc1F,-,0.5 µg/mL
CN(CC(=O)Nc1ccccc1)CC(O)(Cn1cncn1)c1ccc(F)cc1F,-,16 µg/mL
Cc1ccccc1/C=C1\SC(=O)N(CC(O)(Cn2nccn2)c2ccc(F)cc2F)C1=O,-,>100 µg/mL
NN(Cc1ccccc1)CC(O)(Cn1cncn1)c1ccc(F)cc1F,ATCC 750,0.125 µg/mL
Cc1ccc(NC(=O)CN(C)CC(O)(Cn2cncn2)c2ccc(F)cc2F)cc1,-,64 µg/mL
CCCCN(Cc1cn(Cc2ccccc2C#N)nn1)CC(O)(Cn1cncn1)c1ccc(F)cc1F,-,1 µg/mL

The last 2 rows once more:

Cc1ccc(NC(=O)CN(C)CC(O)(Cn2cncn2)c2ccc(F)cc2F)cc1 ; value: 64 µg/mL
CCCCN(Cc1cn(Cc2ccccc2C#N)nn1)CC(O)(Cn1cncn1)c1ccc(F)cc1F ; value: 1 µg/mL